Measured values from several laboratories, pooled; numbers as filed in NIAID ChemDB.

All rows: whole-cell or culture tests; organism: Varicella zoster virus; cells: HEL; measure: EC50

An empty or dashed field is not shown. Neighbouring rows are from separate reports. ECn is the concentration giving n% inhibition of infection, replication or growth.

| compound | strain | read by | result |
|---|---|---|---|
| CCCc1ccc(OCCCc2cc3cn([C@H]4C[C@H](O)[C@@H](CO)O4)c(=O)nc3o2)cc1 | TK+/YS | plaque count | 10.8 µM |
| O=c1ccn([C@@H]2O[C@H](/C=C/C=C(Br)Br)[C@@H](O)[C@H]2O)c(=O)[nH]1 | 07/1 | - | >120 µM |
| Nc1nc(=O)n([C@H]2C[C@H](O)[C@@H](CO)O2)cc1/C=C/Cl | YS/R (TK-) | plaque count | >40 µg/mL |
| O=c1[nH]c(=O)n([C@@H]2O[C@H](CO)[C@@H](O)[C@@H]2O)cc1/C=C/Br | Oka PFA-resistant/A | cytopathic effect | 0.00037 µM |
| Cc1cn(C(CF)CCCO)c(=O)[nH]c1=O | YS | cytopathic effect | >50 µg/mL |
| Cc1ccc(OCCCc2cc3cn([C@H]4C[C@H](O)[C@@H](CO)O4)c(=O)nc3o2)cc1 | (TK-)/YS/R | plaque count | >50 µM |
| O=c1[nH]c(=O)n([C@H]2C[C@H](O)[C@@H](CO)O2)cc1I | YS | plaque count | 0.3 µg/mL |
| CCc1ccc(OCCCc2cc3cn([C@H]4C[C@H](O)[C@@H](CO)O4)c(=O)nc3o2)cc1 | (TK-)/YS/R | plaque count | >20 µM |
| O=c1[nH]c(=O)n([C@H]2C[C@H](O)[C@@H](CO)O2)cc1/C=C\Cl | 7/01 (TK-) | plaque count | >40 µg/mL |
| O=C(O)CP(=O)(O)O | Oka PFA-resistant/B | cytopathic effect | 321.3 µM |
| Nc1ccn([C@@H]2O[C@H](CO)[C@@H](O)[C@@H]2O)c(=O)n1 | YS-W3 G19 H3 | plaque count | 0.15 µg/mL |
| Nc1nc2c(ncn2CCCC(O)CF)c(=O)[nH]1 | 07-01/TK- | cytopathic effect | >50 µg/mL |
| Cc1c(Br)cc(Br)c2ncc(CSCCc3ccccc3)n12 | YS/R (TK-) | plaque count | 2.6 µg/mL |
| Nc1nc2c(ncn2CCC(CO)CO)c(=O)[nH]1 | Clinical isolate VZV-31 | cytopathic effect | 2 µM |
| Nc1ccn(C(CF)CCCO)c(=O)n1 | YS/R (TK-) | cytopathic effect | >50 µg/mL |
| Cc1c(Br)cc(Br)c2ncc(CSCc3ccccc3Cl)n12 | 07/1 (TK-) | plaque count | >5 µg/mL |
| CCCCCCCC/C=C/CCCCCCCC(=O)O | YS | cytopathic effect | >100 µM |
| Cc1c(Br)cc(Br)c2ncc(CSCc3ccco3)n12 | YS/R (TK-) | plaque count | 11 µg/mL |
| Nc1nc2c(ncn2COC(CO)CO)c(=O)[nH]1 | OKA | cytopathic effect | 0.73 µM |
| Cc1ccccc1CSCc1cnc2c(Br)cc(Br)c(C)n12 | YS (TK+) | plaque count | >5 µg/mL |
| O=C(O)P(=O)(O)O | Oka CF1742-resistant | cytopathic effect | 35.3 µM |
| Nc1ccn(C[C@@H](CO)OCP(=O)(O)O)c(=O)n1 | OKA | cytopathic effect | 0.38 µM |
| Cc1c(Br)cc(Br)c2ncc(CSCc3ccc(Cl)c(Cl)c3)n12 | OKA (TK+) | plaque count | >5 µg/mL |

A second listing of 2 rows from above:

compound | strain | read by | result
CCc1ccc(OCCCc2cc3cn([C@H]4C[C@H](O)[C@@H](CO)O4)c(=O)nc3o2)cc1 | (TK-)/YS/R | plaque count | >20 µM
Nc1ccn(C(CF)CCCO)c(=O)n1 | YS/R (TK-) | cytopathic effect | >50 µg/mL